Data reported in PMC12706794, “Identification and Characterization of a Small-Molecule Inhibitor of the Pseudomonas aeruginosa SOS Response” (ACS Infectious Diseases, 2025).
The exact form of at least one protein or probe is not confirmed. At least one verdict rests on a figure or table, not on a statement of the authors.

Biological target: LexAPa S125A (uncleavable mutant) (Pseudomonas aeruginosa ATCC 27853) (UniProt P37452)
Assay: EMSA
Settings: 8 uM LexA, 1 uM DNA, recombinant protein

GATGCCTGCGGATACTGTATATATATACAGTATCAATTCTGGCT (double strand) [SOS-box dsDNA (AT-repeat)]
binding result (50 uM A12, 10% DMSO): binds
binding result (100 uM A12, 10% DMSO): binds
